Compound potency records, mixed from different reports. Data source: NIAID ChemDB in PubChem.

All rows: toxicity to cultured cells; cells: MT-4; method: MTT; read-out: CC50

Conditions beyond the fields shown may differ between rows.

compound,value
Cn1ncc2c1S(=O)(=O)N(Cc1cccc(Cl)c1)C(=O)N2,231.6 µM
CCOC(=O)c1cn(CC=C(C)C)cc1S(=O)(=O)c1cc(Cl)ccc1N,>200 µM
Cc1c(C(C)C)s/c(=N\S(=O)(=O)c2cccc([N+](=O)[O-])c2)n1C,>25 µM
CC=CCN1C(C)C(=O)Nc2ccc(Cl)cc2S1(=O)=O,>200 µM
c1cc(CN2CCCNCCNCCCNCC2)ccc1CN1CCCNCCNCCCNCC1,>20 µM
Cc1cc(C)cc(S(=O)(=O)N2CCC(NC(=O)c3cc(O)c(O)c(O)c3)CC2)c1,74 µM
O=C1Nc2ccc(Cl)cc2S(=O)(=O)c2cn(Cc3c(F)cccc3F)cc21,>200 µM
CSCC[C@H](NC(=O)COc1ccc2ccccc2c1)C(=O)NN,>100 µg/mL
COC(=O)[C@@H](NC(=O)CNC(=O)COc1ccc2ccccc2c1)C(C)C,82 µg/mL
CN(C)C(=O)N1CCC(NC(=O)c2cc(O)c(O)c(O)c2)CC1,34.3 µM
CCOC(=O)c1c[nH]cc1S(=O)(=O)c1ccccc1,>200 µM
CC(C)c1nc(C(=O)NCc2ccc(F)cc2)c(O)c(=O)n1C,61 µM
CCOC(=O)CC(=O)N1CCC(NC(=O)c2cc(O)c(O)c(O)c2)CC1,31.3 µM
CC(C)Nc1cccnc1N1CCN(C(=O)c2cc3cc(NS(C)(=O)=O)ccc3[nH]2)CC1,>4.4 µM
COC(=O)[C@H](CC(C)C)NC(=O)COc1ccc2ccccc2c1,>100 µg/mL
CCOC(=O)CN(CC)S(=O)(=O)c1cc(Cl)ccc1[N+](=O)[O-],>200 µM
O=c1[nH]cnc2c1ncn2[C@H]1CC[C@@H](CO)O1,≥529 µM
COc1ccc(-c2csc(/N=C/c3ccc(O)c(OC)c3)n2)cc1,≥100 µM
CC(C)=CCN1C(C)Cn2c(=O)[nH]c3cc(Cl)cc(c32)S1(=O)=O,>200 µM
COc1ccc(C(=O)N2CCC(NC(=O)c3cc(O)c(O)c(O)c3)CC2)cc1,85.7 µM
Cn1ncc2c1S(=O)(=O)N(Cc1cccc(Cl)c1)C(=O)N2Cc1ccccc1Br,>252.3 µM
COC(=O)[C@H](CO)NC(=O)COc1ccc2ccccc2c1,>100 µg/mL
CSCn1cc2c(c1)S(=O)(=O)c1cc(Cl)ccc1NC2=O,>200 µM
O=C(O)c1cn(CCO)c2ccc(Cc3ccccc3)cc2c1=O,49 µM
CN[C@H]1CO[C@@H]2OCC[C@H](OC(=O)N[C@@H](Cc3cccc(OC)c3)[C@H](O)CN(CC(C)C)S(=O)(=O)c3ccc4nc(NC(C)C)sc4c3)[C@@H]21,33 µM
O=C(NC1CCN(C(=O)c2ccccc2)CC1)c1cc(O)c(O)c(O)c1,38.3 µM
Cc1cc(C#Cc2cccc(N)c2)cc(C)c1Oc1ccnc(NC2CCN(Cc3ccc(S(N)(=O)=O)cc3)CC2)n1,0.732 µM
O=C([O-])c1cn(CCO)c2ccc(Cc3ccccc3)cc2c1=O.O=C([O-])c1cn(CCO)c2ccc(Cc3ccccc3)cc2c1=O.[Mg+2],≥36 µM
Cc1cn([C@H]2C[C@H](N=[N+]=[N-])[C@@H](CO)O2)c(=O)[nH]c1=O,>100 µM
Nc1ncnc2c1ncn2CC1CN1CP(=O)(O)O,>100 µM
Cc1cc(C#N)cc(C)c1Oc1nc(Nc2ccc(C#N)cc2)nc(N)c1Br,2.2 µM
COC(=O)[C@H](CO[C@H]1O[C@H](C2COC(C)(C)O2)[C@@H]2OC(C)(C)O[C@H]12)NC(=O)[C@H](CCSC)NC(=O)COc1ccc2ccccc2c1,75 µg/mL
Cc1cn([C@H]2C[C@H](N=[N+]=[N-])[C@@H](CO)O2)c(=O)[nH]c1=O,>94 µM
Cc1cn([C@H]2C[C@H](N=[N+]=[N-])[C@@H](CO)O2)c(=O)[nH]c1=O,>46 µM
COc1cc(Oc2c(C)cc(C#N)cc2C)cc(Nc2ccc(C#N)cc2)n1,>147 µM
Nc1nc2c(ncn2CC2CN2CP(=O)(O)O)c(=O)[nH]1,>100 µM
COC(=O)[C@H](CC(C)C)NC(=O)CNC(=O)COc1ccc2ccccc2c1,16 µg/mL
Cn1ncc2c1S(=O)(=O)N(Cc1cccc(Cl)c1)C(=O)N2Cc1ccccc1,>300.1 µM
CCN[C@H]1CO[C@@H]2OCC[C@H](OC(=O)N[C@@H](Cc3cccc(OC)c3)[C@H](O)CN(CC(C)C)S(=O)(=O)c3ccc4nc(NC(C)C)sc4c3)[C@@H]21,38 µM
Cc1cc(C#Cc2ccc(C(=O)O)cc2)cc(C)c1Oc1ccnc(Nc2ccc(C#N)cc2)n1,25 µM
O=C(NC1CCN(S(=O)(=O)c2ccc(F)cc2)CC1)c1cc(O)c(O)c(O)c1,178.4 µM
Cc1cc(C#Cc2ccccc2)cc(C)c1Oc1ccnc(NC2CCN(Cc3ccc(S(N)(=O)=O)cc3)CC2)n1,0.766 µM
CC(=O)c1s/c(=N\S(=O)(=O)c2cccc([N+](=O)[O-])c2)n(C)c1C,>25 µM
Cc1cc(C)c(Oc2ccc([N+](=O)[O-])c(NC3CCN(Cc4ccncc4)CC3)n2)c(C)c1,>279 µM
CCOC(=O)c1c[nH]cc1S(=O)(=O)c1cc(Cl)ccc1N,96 µM
Cc1cc(C#Cc2cccc(N)c2)cc(C)c1Oc1ccnc(NC2CCN(Cc3ccc(C#N)cc3)CC2)n1,0.261 µM
NNC(=O)CNC(=O)COc1ccc2ccccc2c1,>100 µg/mL
Cc1cn([C@H]2C[C@H](N=[N+]=[N-])[C@@H](CO)O2)c(=O)[nH]c1=O,63 µg/mL
CCn1c(C)c(C(C)(C)C)s/c1=N\S(=O)(=O)c1cccc([N+](=O)[O-])c1,11.5 µM
Nc1ncnc2c1ncn2CCOCP(=O)(O)O,>10 µM
Cc1cc(C#N)cc(C)c1Oc1ccc([N+](=O)[O-])c(NC2CCN(Cc3ccncc3)CC2)n1,26 µM
COc1cccc(C=Nc2nsc3ccccc23)c1O,6 µM
C1CNCCNCCCNCCNC1.[Cl-].[O]=[V+2],>360 µM
COC(=O)CNC(=O)[C@H](CCSC)NC(=O)COc1ccc2ccccc2c1,>100 µg/mL
N#CCN1C(=O)N(Cc2cccc(Cl)c2)S(=O)(=O)c2cscc21,>119 µM
Cc1cn([C@H]2C[C@H](N=[N+]=[N-])[C@@H](CO)O2)c(=O)[nH]c1=O,150 µM
CN1C(=S)c2cn(C)cc2S(=O)(=O)c2cc(Cl)ccc21,>200 µM
Cc1cc(C#N)cc(C)c1Oc1ccnc(S(=O)(=O)CC(=O)Nc2cccc([N+](=O)[O-])c2)n1,>23.6 µM
Cc1cc(C#Cc2ccccc2N)cc(C)c1Oc1ccnc(Nc2ccc(C#N)cc2)n1,8.883 µM
O=C(NC1CCNCC1)c1cc(O)c(O)c(O)c1,42.1 µM
Cn1cc2c(c1)S(=O)(=O)c1cc(Cl)ccc1NC2=S,>200 µM
CCc1c(C(=O)c2cccc3ccccc23)n(C/C=C/C(=O)OC)c(=O)[nH]c1=O,34.44 µM
COC(=O)[C@H](Cc1ccc(O)cc1)NC(=O)COc1ccc2ccccc2c1,65 µg/mL
Cc1cc(C)c(Oc2ccc([N+](=O)[O-])c(NC3CCN(Cc4ccc(C(N)=O)cc4)CC3)n2)c(C)c1,19 µM
Cc1cc(C)cc(S(=O)(=O)c2c(C(N)=O)[nH]c3ccc(Cl)cc23)c1,12 µM
Nc1ccn([C@H]2CC[C@@H](CO)O2)c(=O)n1,>95 µM
C/C=C(\C)CC/C=C(\C)CC/C=C(\C)CC/C=C(\C)CC/C=C(\C)CC/C=C(\C)CC/C=C(\C)CC/C=C(\C)CC/C=C(\C)Cn1c(C(=O)c2cccc3ccccc23)c(C(C)C)c(=O)[nH]c1=O,72.01 µM
COC(=O)CNC(=O)COc1ccc2ccccc2c1,>100 µg/mL
Cc1nc(NS(=O)(=O)c2cccc([N+](=O)[O-])c2)sc1C(C)(C)C,>25 µM
Cc1ccc2snc(N=Cc3ccccc3Cl)c2c1,8 µM
Cn1ncc2c1S(=O)(=O)N(Cc1cccc(Cl)c1)C(=O)N2Cc1ccccc1C#N,233.3 µM
Nc1ncnc2c1ncn2[C@@H]1OC[C@H](CCP(=O)(O)O)[C@H]1F,80 µM
Cc1cn([C@H]2C[C@H](N=[N+]=[N-])[C@@H](CO)O2)c(=O)[nH]c1=O,29.4 µM
NC(N)=NCCC[C@H]1/C=C/[C@H](Cc2ccc3ccccc3c2)C(=O)NCC(=O)N[C@H](Cc2ccc(O)cc2)C(=O)N[C@@H](CCCN=C(N)N)C(=O)N1,>100 µM
Cc1ccnc2c1NC(=O)c1cccnc1N2C1CC1,>15.02 µM
CCc1c(C(=O)c2cccc3ccccc23)n(COC)c(=O)[nH]c1=O,34.35 µM
Cc1cn([C@H]2C[C@H](N=[N+]=[N-])[C@@H](CO)O2)c(=O)[nH]c1=O,210.4 µg/mL
Cc1cccc(C)c1OCC(=O)N[C@@H](Cc1ccccc1)[C@@H](O)C[C@H](Cc1ccccc1)NC(=O)[C@H](C(C)C)N1CCCNC1=O,60 µM
CC(C)c1c(C(=O)c2cccc3ccccc23)n(Cc2ccccc2)c(=O)[nH]c1=O,33.54 µM

For reference, 11 entries again:

compound,value
Cc1cc(C#N)cc(C)c1Oc1nc(Nc2ccc(C#N)cc2)nc(N)c1Br,2.2 µM
Nc1ncnc2c1ncn2CCOCP(=O)(O)O,>10 µM
Cc1cc(C#Cc2ccccc2)cc(C)c1Oc1ccnc(NC2CCN(Cc3ccc(S(N)(=O)=O)cc3)CC2)n1,0.766 µM
Cc1cn([C@H]2C[C@H](N=[N+]=[N-])[C@@H](CO)O2)c(=O)[nH]c1=O,29.4 µM
COC(=O)[C@H](CO)NC(=O)COc1ccc2ccccc2c1,>100 µg/mL
Cc1cc(C#Cc2ccccc2N)cc(C)c1Oc1ccnc(Nc2ccc(C#N)cc2)n1,8.883 µM
CC=CCN1C(C)C(=O)Nc2ccc(Cl)cc2S1(=O)=O,>200 µM
O=C(NC1CCNCC1)c1cc(O)c(O)c(O)c1,42.1 µM
COc1cccc(C=Nc2nsc3ccccc23)c1O,6 µM
Cc1cccc(C)c1OCC(=O)N[C@@H](Cc1ccccc1)[C@@H](O)C[C@H](Cc1ccccc1)NC(=O)[C@H](C(C)C)N1CCCNC1=O,60 µM
COC(=O)[C@H](CC(C)C)NC(=O)COc1ccc2ccccc2c1,>100 µg/mL

CCn is the concentration with n% toxicity to the cells.